# Values quoted from earlier work in paper PMC2887854.
# Protein sequences, listed by entry. Tags and fused reporters are not part of them. Residues count along the entry.
# UniProt P13423, 30-764: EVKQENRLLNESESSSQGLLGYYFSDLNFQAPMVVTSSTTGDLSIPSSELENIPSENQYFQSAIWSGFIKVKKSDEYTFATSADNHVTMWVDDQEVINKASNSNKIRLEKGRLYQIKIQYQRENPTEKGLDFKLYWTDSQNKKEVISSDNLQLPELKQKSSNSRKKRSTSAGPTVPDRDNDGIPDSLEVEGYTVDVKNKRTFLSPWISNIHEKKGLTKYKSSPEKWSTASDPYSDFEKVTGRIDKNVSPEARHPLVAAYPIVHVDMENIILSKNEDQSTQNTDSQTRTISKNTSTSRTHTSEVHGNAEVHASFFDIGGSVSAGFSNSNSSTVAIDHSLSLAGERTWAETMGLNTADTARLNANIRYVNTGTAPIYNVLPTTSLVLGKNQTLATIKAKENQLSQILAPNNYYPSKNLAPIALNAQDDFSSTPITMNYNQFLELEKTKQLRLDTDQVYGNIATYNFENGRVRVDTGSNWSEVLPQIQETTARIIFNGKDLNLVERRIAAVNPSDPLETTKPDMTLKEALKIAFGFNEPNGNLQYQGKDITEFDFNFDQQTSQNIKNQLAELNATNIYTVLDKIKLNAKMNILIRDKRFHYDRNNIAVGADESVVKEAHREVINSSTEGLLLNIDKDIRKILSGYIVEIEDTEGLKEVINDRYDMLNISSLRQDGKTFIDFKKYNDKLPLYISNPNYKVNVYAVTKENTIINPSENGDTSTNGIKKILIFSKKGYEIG
# UniProt Q9H6X2, 33-321: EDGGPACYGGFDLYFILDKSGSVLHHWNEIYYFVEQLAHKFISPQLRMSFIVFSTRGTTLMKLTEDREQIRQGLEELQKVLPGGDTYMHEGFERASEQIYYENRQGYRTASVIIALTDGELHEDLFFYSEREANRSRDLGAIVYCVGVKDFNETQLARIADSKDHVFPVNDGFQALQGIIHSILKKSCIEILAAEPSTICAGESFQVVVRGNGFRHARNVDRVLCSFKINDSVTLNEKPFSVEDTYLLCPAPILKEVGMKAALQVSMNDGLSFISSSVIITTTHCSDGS
# UniProt Q9H6X2, 44-215: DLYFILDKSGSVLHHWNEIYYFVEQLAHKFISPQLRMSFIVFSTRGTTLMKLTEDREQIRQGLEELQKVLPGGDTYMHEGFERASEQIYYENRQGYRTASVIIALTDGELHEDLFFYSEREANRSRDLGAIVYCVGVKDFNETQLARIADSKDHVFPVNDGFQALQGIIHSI
# Where “and” joins values, the source holds several entries; their conditions need not be identical. Equal values may be shown once. Read-outs that look alike come from different tables or passages of the source.
# What was measured:
# PA (Bacillus anthracis) [1] = target: PA (Bacillus anthracis) (UniProt P13423); settings: cited from earlier work
# PA (Bacillus anthracis) [2] = target: PA (Bacillus anthracis) (UniProt P13423); settings: cited from earlier work; remark: listed apart in the source
Substance,Kd (PA (Bacillus anthracis) [1]),Kd (PA (Bacillus anthracis) [2])
TEM8 (from UniProt Q9H6X2),130 nM and 1100 nM,–
TEM8 vWA domain (from UniProt Q9H6X2),–,1100 nM and 130 nM
